Results on 25 compounds are retold here after PubChem BioAssay AID588549 (Broad Institute, 2011).

As a reminder, the inhibition is the relative decrease from the control value, in per cent.

The structures appear in SMILES notation. This is a selection; strong and weak results do not stand in their true shares. Calls of active or inactive are those of the source. No stated cut-off is given here; in the data, active means inhibition above about 8.5% (passing the limit was not always enough); inconclusive means no clear call, values can overlap the other calls.

This experiment relates to Mycobacterium tuberculosis FadD28 fatty-acid-AMP ligase. Nature of the experiment: inhibitors of FadD28 bisubstrate probe binding, primary screen, biochemical, fluorescence polarization, single point (AID 588549). To be noted: at 12.5 µM, stronger effect = higher value.
Take `CCCCn1nnnc1C(c1ccnc2ccccc12)N1CCC(n2c(=O)[nH]c3ccccc32)CC1` (stereo not given): the inhibition is inactive: -5.23%. For the compound `COc1cc(OC)c(C(=O)NCC2(N(C)C)CCCCC2)cc1OC`, the inhibition is inactive: 0.157%. For `O=C(NCC1(N2CCOCC2)CCCCC1)c1cc(F)c(F)cc1Cl` the value was inactive: -2.82%; for `CCC(c1nnnn1C(C)(C)C)N1CCC(n2c(=O)[nH]c3ccccc32)CC1` (stereo not given), inactive: -1.85%; for `COc1ccc(CN(CCCl)CCCl)cc1Cl`, inactive: -3.69%. The figure for `CN(C)c1cccc(C(=O)NCC2(N3CCCCC3)CCCCC2)c1` is inactive: -0.579%; for `CC(C)c1ccc(NC2CCN(C(=O)OC(C)(C)C)CC2)cc1` it is inactive: -0.81%; for `CCCCn1nnnc1C(c1ccccc1OC(F)(F)F)N1CCC(n2c(=O)[nH]c3ccccc32)CC1` (stereo not given) it is inactive: -2.42%. The figure for `Cc1ccc(C(=O)NCC2(N(C)C)CCCCC2)o1` is inactive: 1.06%; for `CCCOc1ccc(C(=O)NCC2(N(C)C)CCCCC2)cc1OC` it is inactive: -1.45%; for `COc1ccc(C(c2nnnn2C2CCCC2)N2CCC(n3c(=O)[nH]c4ccccc43)CC2)cc1` (stereo not given) it is inactive: -0.131%. Take `O=C(NCC1(N2CCCCC2)CCCCC1)c1cncc(Br)c1`: the inhibition is inactive: -4.07%. For `CN1CCC(Nc2cccc(F)c2)CC1` the value was inactive: 2.25%; for `CSc1ccc(C(=O)NCC2(N3CCOCC3)CCCCC2)cc1`, inactive: 1.13%. For `O=C(NCC1(N2CCCCC2)CCCCC1)c1cccc([N+](=O)[O-])c1` the value was inactive: -0.268%; for `CCN1CCC(Nc2ccc(Cl)cc2)CC1`, inactive: -1.84%; for `N#CC1(Nc2ccccc2)CCN(CCc2ccccc2)CC1`, inactive: -2.96%. For `O=c1[nH]c2ccccc2n1C1CCN(C(c2ccccc2OC(F)(F)F)c2nnnn2C2CCCC2)CC1` (stereo not given) the value was inactive: -0.655%. Take `CC(C)(C)n1nnnc1C(c1ccccc1OC(F)(F)F)N1CCC(n2c(=O)[nH]c3ccccc32)CC1` (stereo not given): the inhibition is inactive: -2.7%. The figure for `O=C(NCC1(N2CCCCC2)CCCCC1)c1ccc(OC(F)F)cc1` is inactive: -2.87%; for `CCCCn1nnnc1C(c1cccc2ccccc12)N1CCC(n2c(=O)[nH]c3ccccc32)CC1` (stereo not given) it is inactive: -5.54%; for `CN1CCN(CCOC(=O)C(O)(c2ccccc2)c2ccccc2)CC1` it is inactive: -2.56%. For `CC(C)c1ccc(C(=O)NCC2(N3CCOCC3)CCCCC2)cc1` the value was inactive: -2.16%; for `COc1ccc(NC2CCN(C(=O)OC(C)(C)C)CC2)cc1`, inactive: -3.68%.

As to `O=C(NCC1(N2CCOCC2)CCCCC1)c1cc(=O)[nH]c2ccccc12`, the inhibition is inactive: -1.11%.
